Potency data for one compound are collected here from ChEMBL document CHEMBL1201862, “PubChem BioAssay data set” (2004).

Structures are written as SMILES. The list shows a part of the results. These assays gave more results; the selection is not random. The source made the active and inactive calls. No cut-off for these calls is given here.

The assay addresses T1, Pyruvate kinase (Leishmania mexicana) (UniProt Q27686).
T1 sequence (whole entry): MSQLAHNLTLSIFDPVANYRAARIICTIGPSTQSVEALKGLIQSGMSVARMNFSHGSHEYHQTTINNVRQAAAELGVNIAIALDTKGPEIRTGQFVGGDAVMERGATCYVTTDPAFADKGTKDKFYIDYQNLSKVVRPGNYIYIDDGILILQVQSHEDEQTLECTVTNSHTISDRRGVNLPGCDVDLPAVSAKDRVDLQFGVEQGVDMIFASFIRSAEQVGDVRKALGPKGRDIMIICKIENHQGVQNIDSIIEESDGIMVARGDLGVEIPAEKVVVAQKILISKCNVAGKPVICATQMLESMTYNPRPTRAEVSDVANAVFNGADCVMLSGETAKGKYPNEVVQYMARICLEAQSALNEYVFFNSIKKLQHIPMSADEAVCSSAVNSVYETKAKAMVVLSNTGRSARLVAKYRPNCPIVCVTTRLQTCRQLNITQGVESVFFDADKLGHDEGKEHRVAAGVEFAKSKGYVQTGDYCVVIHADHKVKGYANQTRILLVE
Kind of assay: qHTS Assay for Activators of Leishmania Mexicana Pyruvate Kinase (LmPK). It counts as functional.
Turning to `CS(=O)(=O)c1cc([N+](=O)[O-])c2no[n+]([O-])c2c1`, the Potency result was “inactive”.
